Human monoclonal antibodies against the spike receptor-binding domain (heavy:light variable regions). IC50 against pseudoviruses bearing the spike of naturally observed variants; lower = stronger; >10 µg/ml means not reached at the top dose. No active / inactive call. The stated detection limit is 0.0005 µg/ml; values near or below 0.001 µg/ml lie at the floor of the assay.

Holding throughout (assay): pseudovirus neutralization IC50; higher = weaker neutralization
Assay [1] concerns the target SARS-CoV-2 Omicron BA.1 spike pseudovirus. As to the method: (§1)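 Single-round VSV luciferase pseudovirus mixed with antibody dilutions for 1 h and put on Huh-7 cells for about a day; IC50 from the dose curve.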
The target of assay [2] is SARS-CoV-2 Omicron BA.2 spike pseudovirus. As to the method:
as §1

The target in assay [3] is SARS-CoV-2 Omicron BA.2.75 spike pseudovirus. On the procedure: as §1
In assay [4] the target is SARS-CoV-2 Omicron BA.5 spike pseudovirus. As to the method: as §1
Assay [5] addresses SARS-CoV-2 Omicron BQ.1.1 spike pseudovirus. On the procedure:
as §1

Assay [6] addresses SARS-CoV-2 Omicron XBB spike pseudovirus. On the procedure: as §1
The target of assay [7] is SARS-CoV-2 early D614G spike pseudovirus. As to the method: as §1

B1: BD56-1701 (protein)
chain 1: QVRLVESGGGVVQPGTSLRLSCVASGFTFSSYTLHWVRQAPGKGLEWVGFVSHDGNSKHYADSVRGRFTISRDNSKNTLYLQMNSLRVEDTAVYYCARVPYGSGSLTGYFDYWGQGTLVTVSS
chain 2: SYVLIQPPSVSVAPGKTARITCGGDDIGSKNVHWYQQKPGQAPVLVVYDDHDRPAGTPERLSGSNSGNTATLTISRVEAGDEADYYCQVWDSSSDPWVFGGGTKLTVL
As for B1, the “pseudovirus neutralization IC50” value was 0.937 µg/mL in assay [1]; 1.33 µg/mL in assay [2]; 1.62 µg/mL in assay [3]; more than 10 µg/mL in assay [4]; more than 10 µg/mL in assay [5]; 1.47 µg/mL in assay [6]. In addition, in assay [7], the “pseudovirus neutralization IC50” value came to 1.91 µg/mL.

B2: BD56-1694 (protein)
chain 1: QVQLVQSGAEVKKPGSSVKVSCKAPGGTFSSYAISWVRQAPGQGLEWMGRIIPILGIPNYAQKFQDRVTITADKSTSTAYMDLSSLRSEDTAVYYCARDESRSCSSTTCFDYWGQGTLVTVSS
chain 2: QSVLTQPPSVSGAPGQRVTISCTGSNSNIGAGYDVHWYQQLPGAAPKLLIYNNNNRPSGVPDRFSGSKSGTSASLAITGLQADDESGYYCQSYDSSLSDVVFGGGTKLTVL
Turning to B2, the “pseudovirus neutralization IC50” value is 0.0261 µg/mL in assay [1]; 0.00936 µg/mL in assay [2]; 0.0236 µg/mL in assay [3]; more than 10 µg/mL in assay [4]; more than 10 µg/mL in assay [5]; more than 10 µg/mL in assay [6]. Also, the “pseudovirus neutralization IC50” value in assay [7] came to 0.0505 µg/mL.

B3: BD56-1708 (protein)
chain 1: QVQLVQSGAEVKKPGSSVKVSCKASGGTFSSHSISWVRQAPGQGLEWMGRIFPILGVPNYGHHFQDRVTITADKSTSTAYLELTSLRSQDTAVYYCAREALAPANTWYFDLWGRGTLVTVSS
chain 2: QSVLTQPPSVSGAPGQRVTISCTGSNSNIGAGYDVHWYQQLPGTAPKLLIYDNNNRPSGVPDRFSGSKSGTSASLAITGLQAEDEADYYCQSYDSSLSDVVFAEGTKLTVL
With B3, the “pseudovirus neutralization IC50” value in assay [1] was 0.0155 µg/mL; in assay [2], 0.0103 µg/mL; in assay [3], 0.0239 µg/mL; in assay [4] it was 2.63 µg/mL; in assay [5], more than 10 µg/mL; in assay [6] it was more than 10 µg/mL. Moreover, the “pseudovirus neutralization IC50” value in assay [7] was determined as 0.0661 µg/mL.

B4: BD56-1715 (protein)
chain 1: EVQLVESGGGLAQPGGSLRVSCAASGFMFGACSMSWVRQAPGKGLEWVANIKQDGSDKYYVDSVKGRFTISRDNAKNSLFLQMNSLRAEDTAIYYCARVDPGVVADDLYFDYWGQGTLVTVSS
chain 2: SSELTQPPSVSVSPGQTARITCSGDAFPNQYSYWYQQKPGQAPVMVIYKDNERPSGIPERFSGSSSGTTVTLTISGVQAEDEADYYCQSADSRSVVFGGGTKLTVL
On to B4, for which the “pseudovirus neutralization IC50” value in assay [1], in assay [2], in assay [3], in assay [4], in assay [5] and in assay [6] was more than 10 µg/mL in each case. The “pseudovirus neutralization IC50” value in assay [7] is more than 10 µg/mL.

B5: BD56-1697 (protein)
chain 1: EVQLLESGGGLVHPGGSLRLSCAASGFTFSSYAMNWVRQAPGKGLEWVSVISDSGDDTYYGDSVMGRFTISRDNSKNTLYLQLNSLRAEDTAAYYCAKSGYCSGMTCPSGYYIDYWGQGTLITVSS
chain 2: DIQMTQSPSSLSASVGDRVTITCRASQHISSFLNWYQQKPGKAPKLLIYGASSLQSGVPSRFSGSGFGTDFTLAISSLQPEDFAAYYCQQSYTTPYTFGQGTKLEIK
For B5, the “pseudovirus neutralization IC50” value is 0.0019 µg/mL in assay [1]; 0.000753 µg/mL in assay [2]; 0.000703 µg/mL in assay [3]; 0.0112 µg/mL in assay [4]; 0.0354 µg/mL in assay [5]; more than 10 µg/mL in assay [6]. In addition, the “pseudovirus neutralization IC50” value in assay [7] was 0.000991 µg/mL.

B6: BD56-1716 (protein)
chain 1: EVQLVESGGHLVKPGGSLRLSCAASGFTFSNAWMNWVRQAPGKGLEWIGRIKSKTDGGSTDYAAPVKGRFTISRDDSKNTLYLQMNSLKTEDTAVYFCSTDGGLFYDYGDLDGFDIWGQGTMVTVSS
chain 2: DIVMTQSPLSLPVTPGEPASISCTSSQSLLHYNGNNYLDWYLQKPGQSPQLLIYLGSNRASGVPARFSGSGSGTDFTLKISRVEAEDVGVYYCMQVLQTPRTFGQGTKVEIK
In the case of B6, the “pseudovirus neutralization IC50” value is 0.0173 µg/mL in assay [1]; 0.00619 µg/mL in assay [2]; 0.0149 µg/mL in assay [3]; 0.00814 µg/mL in assay [4]; more than 10 µg/mL in assay [5]; more than 10 µg/mL in assay [6]. The “pseudovirus neutralization IC50” value in assay [7] was 0.0153 µg/mL.

B7: BD56-1710 (protein)
chain 1: EVQLVQSGGGLVQPGGSLRLSCAASGFIFSDYPMNWVRQVPGKGLEWVSYISSSSRTIYYADSVKGRFTISRDNARSSLYLHMSRLRDDDTAVYYCARADLWGYDIVTDYSALFDNWGQGTLVTVSS
chain 2: EIVLTQSPGTLSLSPGERATLSCRASQTVSSTYLAWYQQKPGQAPRLVIYGASSRASGIPDRFSGSGSGTDFTLTISRLEPEDFAVYYCQQSDTPPATFGQGTKVDIK
Turning to B7, the “pseudovirus neutralization IC50” value in assay [1], in assay [2], in assay [3], in assay [4], in assay [5] and in assay [6] was more than 10 µg/mL in each case. Also, the “pseudovirus neutralization IC50” value in assay [7] was more than 10 µg/mL.

B8: BD56-1696 (protein)
chain 1: QVQLVESGGGVVRPGRSLRLSCAASGFTFSSYSMHWVRQAPGKGLQWVAVILYDGSYKDYADSVKGRFTISRDNSKNTLYLQMNSLRPEDTAVYYCARDWGTVVTLFDCWGQGALVTVSS
chain 2: DIQMTQSPSSLSASVGDRVTITCRASQSIKTYLNWFQQKPGKAPKLLIFGASSLQSGVPSRFSGSGSGTDFTLTISSLQPEDFATYYCQQSYNTPPWTFGQGTKVEIK
In the case of B8, the “pseudovirus neutralization IC50” value in assay [1], in assay [2], in assay [3], in assay [4], in assay [5] and in assay [6] was more than 10 µg/mL each time. For the same molecule, the “pseudovirus neutralization IC50” value in assay [7] was found to be 0.455 µg/mL.

B9: BD56-1703 (protein)
chain 1: QVHLVESGGGVVRPGGSLRLSCSASGFTFSRYDMHWVRQAPGKGLEWVAVISSDGNMKFYADSVKGRFTVSRDSSKNTLHLQMNSLRVEDTAFYYCAKDVGSAAPVDYFVSWGQGTLVTVSS
chain 2: DIQMTQSPSSLSASVGDRVTITCRATQSIRNYLNWYQQKPGKAPQLLIYSASSLQSGVPSRFSGSGSGTHFTLTISSLQPEDFATYYCQQSYNTPPWTFGQGTKVEIK
For the molecule B9, the “pseudovirus neutralization IC50” value came out at 2.68 µg/mL in assay [1]; 1.9 µg/mL in assay [2]; 4.31 µg/mL in assay [3]; 3.17 µg/mL in assay [4]; 2.21 µg/mL in assay [5]; 2.89 µg/mL in assay [6]. Further, in assay [7], the “pseudovirus neutralization IC50” value came out at 0.451 µg/mL.

B10: BD56-1712 (protein)
chain 1: QVHLVQSGAEVRKPGASVKVSCKASGYSLTSHFMHWVRQAPGQGLEWMGIINPSGSSADYAQRFQGRVSMTRDTSTSTVYMELSSLRSEDTAVYYCARGHRVAVAGLLDYWGQGTLVTVSS
chain 2: QTVVTQEPSLTVSPGGTVTLTCASSTGAVTSGYFPNWFQQKPGQAPRALIYSTSNRHSWTPARFSGSLLGGKAALALSGVQPEDEAEYYCLLYYGGAWVFGGGTKVTVL
As for B10, the “pseudovirus neutralization IC50” value was 4.36 µg/mL in assay [1]; 1.08 µg/mL in assay [2]; more than 10 µg/mL in assay [3]; more than 10 µg/mL in assay [4]; more than 10 µg/mL in assay [5]; more than 10 µg/mL in assay [6]. Besides, the “pseudovirus neutralization IC50” value in assay [7] amounted to 0.00766 µg/mL.

B11: BD56-1707 (protein)
chain 1: EVHLVESGGGAVQPGGSLRLSCTASRFTFDDHAMHWVRQAPGKGLEWLSLISGDGGQTYHADSVKGRFSISRDNSKKSLYLQMSNLKTEDTAVYYCAKDMGWWGVTDFYGIDVWGQGTTVTVSS
chain 2: EIVLTQSPATLSLSPGERATLSCRASESIRTFLAWYQQKPAQAPRLLIYDASNRATGTPARFSGSGSGTDFTLTISSLEPEDFAVYYCHQRLNWPSFGQGTRLDIK
Turning to B11, the “pseudovirus neutralization IC50” value in assay [1] is 0.578 µg/mL; in assay [2], 0.375 µg/mL; in assay [3], 0.565 µg/mL; in assay [4] it was 3.85 µg/mL; in assay [5] it was more than 10 µg/mL; in assay [6], more than 10 µg/mL. The “pseudovirus neutralization IC50” value in assay [7] amounted to 0.4 µg/mL.

B12: BD56-1692 (protein)
chain 1: EVQLVESGGGLVQPGRSLRLSCAASGFTFDDYAIHWVRQAPGKGLEWLSGSTWNSGTIGYADSVKGRFIISRDNAKNSLYLQMNRLRAEDTALYYCAKDQNGDGERAFDYWGQGTLVTVSS
chain 2: SYVLTQPPSVSVAPGQTARITCGGNNIGSKSVHWYQQKPGQAPVLVVYDDADRPSGIPERFSGSNSGNTATLTISRVEAGDEADYSCQVWDSSGDQVVFGGGTKLTVL
In the case of B12, the “pseudovirus neutralization IC50” value is 0.0109 µg/mL in assay [1]; 0.021 µg/mL in assay [2]; 0.0225 µg/mL in assay [3]; more than 10 µg/mL in assay [4]; more than 10 µg/mL in assay [5]; more than 10 µg/mL in assay [6]. In assay [7], the “pseudovirus neutralization IC50” value is 0.0107 µg/mL.

The values are drawn from the supplement of paper PMC9931576.
